The supplement of paper PMC9931576
Human monoclonal antibodies against the spike receptor-binding domain (heavy:light variable regions). IC50 against pseudoviruses bearing the spike of naturally observed variants; lower = stronger; >10 µg/ml means not reached at the top dose. No active / inactive call. The stated detection limit is 0.0005 µg/ml; values near or below 0.001 µg/ml lie at the floor of the assay.

B1: BD57-0404 (protein)
chain 1: QVQLVQSGTAVKRPGASVRVSCRASGYTFTDFYMHWVRQAPGRGLEWMGIINPSGVGTTYAQKFQDRVSMTTDTSTSTVYMVLSSLISDDTAMYYCARGAGIVPTIRYLDYWGQGTLVTVSA
chain 2: DIVMTQSPDSLAVSLGERATINCKSTQSVLYSSSKKNYLAWYQQKAGQPPKLLISWSSTRESGVPDRFSGSGSGTDFTLTISSLQAEDAAVYYCQQYLSTPLTFGQGTKVEIK
B2: BD55-3293 (protein)
chain 1: EVQLVESGGDLVQPGGSLRLSCAASGFTFSDYVMQWVRQAPGKGPEHISSISSIGDYTYYADSVQGRFTISRDNSKNTVYLQMRSLRPEDTAVYYCVKDHGRQLVQEVFDYWGQGTLVTVSS
chain 2: DIQMTQSPSSLSASVGDRVIITCRASQTISTYLNWYQQAPGKAPKLLIYNVSTLKSGVPSRFSGSGSGTDFTLTISRLQPEDFASYYCQQSYTTPFTFGQGTKLEVK
B3: BD55-2101 (protein)
chain 1: DVLLVESGGGLVKPGGSLRLSCVASGFPFESYSMNWVRQAPGKGLEWVSSISGDGTLRFYLDSLKGRISISRDNAKNSLYLQLNGLTVDDTAVYYCVREVGTTLTALDYWGPGTLVTVSS
chain 2: DIQLTQSPSSLSASVGDRVTITCRPSQTIGNYLNWYQQKPGKAPKLLIFAASSLQSGVPSRFSGSGSGTDFTLTISSLQPEDFATYYCQQSYVSPEWTFGPGTKVEVK
B4: BD55-3414 (protein)
chain 1: QVQLQESGPGLVKPSQTLSLTCTVSGGSISRGDYYWSWIRQYPGKGLEWIGYISHSGSTHYNPSLKSRVTISLDTSKNLLSLKVTSVTAADTAVYYCAREEGDRRYTGADAYDIWGPGTMVTVSA
chain 2: QSVLTQPPSVSGAPGQRVTISCAGSSSNIGAGYAVHWYQQLPRTAPKLLIYGDTNRPSGVPDRFSGSKSGTSASLAITGLQAEDEADYYCQSYDSSLNSWVVFGGGTKLTVL
B5: BD55-3324 (protein)
chain 1: EVQLVESGGGLVQPGGSLRLSCAASGFIFSNYAMHWVRQAPGKGLEYVSSITSSGVGGFYAESVKGRFTISRDNSKNTLFLQMGSLTPEDTAVYYCAREGTGVLELYFDFWGPGSLVTVSS
chain 2: DIQMTQSPSSLSASVGDKVTISCRASQSIRTNLNWYQLKPGKAPKLLIYSTSTLQSGVPSRFSGRGSGTDFTLTITSLQPEDFATYFCQQSYTTPEYTFGQGTKLEVK
B6: BD55-3367 (protein)
chain 1: EVQLVESGGGLVQPGGSLRLSCAASGFTFSNYAMHWVRQAPGKGLEYVSSITSDGRGAFYANSLQGRVTISRDNSQKMLYLQMGGLRGEDVAVYYCAREGSTVISHYLDYWGQGTQVTVSS
chain 2: DIQMTQSPSSLSASVGDRVTITCRASQSISTYLNWYQQKPGKAPRLLIYAASSLQSGVPSRFSGSGSGTDFTLTISSLQPEDFATYYCQQSYVTPEYTFGQGTKLEIK
B7: BD57-0405 (protein)
chain 1: QVQLVQSGSELKKPGASVTVSCKAPGYTFRTFSIHWVRQAPGQGLEWMGWINTNTGKPTYAQGFTGRFVFSLDTSVSTAYVQINSLKFDDTAVYYCATVGDVGLGWFDPWGQGTLVTVSS
chain 2: SYVLTQPPSVSVAPGKTATIPCGGNNIGTKSVHWYQQKPGQAPVLVIYYDSDRPSGIPERFSGSNSGNTATLTISRVEAGDEADYYCQVWDSSRDHPVFGTGTKVSVL
B8: BD55-3150 (protein)
chain 1: QITLKESGPTLVQPTQTLTLTCSFSGFSLSTRGEGVGWVRQPPGKALDWLAVLYWDDDTRYSPSLRNRITVTKVTSKNQVILRMTNMDPLDTATYFCVRSFTPRVSFDHWFDPWGQGTLVTVSS
chain 2: QSVVTQPPSMSGAPRQRVTISCSGSSSNIGHNAVTWYQQFPGKAPRLLIYNDDMKPSGVSDRFSGSRSGTSASLAISGLQSEDEADYYCATWDDSLNGLVFGGGTKLTVL
B9: BD55-3161 (protein)
chain 1: QVQLVQSGGEVKKPGSSVKVSCKVSGDTFSNYAISWVRQAPGQGLEWMGRIIPSIGLGNQAQQFQGRLSITADKSTRTVYMDLRSLRSEDTALYYCARDERVDDDANAYYPGGWYLDYWGQGTLVTVSS
chain 2: DIVMTQSPDSLAVSLGERATINCKSSQSVVYSSNNKNYLAWYQQKPGQPPKLLISWASTRESGVPDRFSGSGSGTDFTLTISSLQAEDVAVYYCQQYYDTPLTFGPGTKVDIK
B10: BD57-0401 (protein)
chain 1: QLQLQESGPGLVKPSETLSLTCRVSGGSIGSSSYYWAWIRQPPGKGLEWIGYIYYSGVTYSNSSLKSRVTISVDTSMNQFSLKLRSVTAADTAVYYCARFVRHCSRTICYTFDYWGQGTLVTVSS
chain 2: QSALTQPPSASGSPGQSVTISCTGTSSDVGGYDYVSWYQQHPGKAPKLMIYEVSERPSGVPDRFSGSKSGNTASLTVSGLQTEDEADYYCSSYVGSNVVFGGGTKLTVL
B11: BD55-2532 (protein)
chain 1: QVQLVQSGSELKKPGASVKVSCKASGYTFSGYAMNWVRQAPGQGLEWMGWINTDSGNPTYAQGITGRFVFSLDTSINTAYLQISSLKAEDTAVYYCATGRVGATSANYFYFYFGLDVWGQGTTLTVSS
chain 2: SSELTQPPSVSVSPGQTARITCSGDALTNQYAYWYQQKPGQAPVLLMYQDFERPSGIPERFSGSNSGTTVTLTISGVQAEDEADYYCQSADSSATYVVFGGGTKLTVL
B12: BD55-3366 (protein)
chain 1: QVQLVESGGGVVQPGRSLRLSCAASGFTFSSSVMHWVRQAPGKGLEWVAFVSSDGVNRYHADSVKGRFTISRDNSRNTVYLQMNSLRPEDTALYFCAREGWDPLACFFDAWGQGTLVTVSS
chain 2: DIVMTQSPDSLAVSLGERATINCKSSQSIYSSNNKNYLAWYQQKPGQPPKLLIFWASTRESGVPDRFSGSGSGTDFTLTINSLQAEDVAVYFCQQYYVTPQVTFGQGTRLEIK

These binders were tested against SARS-CoV-2 Omicron BA.1 spike pseudovirus (assay: pseudovirus neutralization IC50; higher = weaker neutralization).
Experimental: (§1)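 Single-round VSV luciferase pseudovirus mixed with antibody dilutions for 1 h and put on Huh-7 cells for about a day; IC50 from the dose curve.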

B1 and B2 cannot be ordered by “pseudovirus neutralization IC50” value: > 10 µg/mL for the first, > 10 µg/mL for the second.

B3 and B4 cannot be ordered by “pseudovirus neutralization IC50” value: > 10 µg/mL for the first, > 10 µg/mL for the second.

B5 and B6 cannot be ordered by “pseudovirus neutralization IC50” value: > 10 µg/mL for the first, > 10 µg/mL for the second.

Compared with B7, B8 is higher in “pseudovirus neutralization IC50” value: 0.208 µg/mL for the first, > 10 µg/mL for the second.

B9 and B10 cannot be ordered by “pseudovirus neutralization IC50” value: > 10 µg/mL for the first, > 10 µg/mL for the second.

First: B11
Second: B12
The “pseudovirus neutralization IC50” value of the first is lower: 0.171 µg/mL for the first, > 10 µg/mL for the second.

These binders were tested against SARS-CoV-2 Omicron BA.2 spike pseudovirus in the same assay as above.
Experimental: as §1

B1 and B2 cannot be ordered by “pseudovirus neutralization IC50” value: > 10 µg/mL for the first, > 10 µg/mL for the second.

B3 and B4 cannot be ordered by “pseudovirus neutralization IC50” value: > 10 µg/mL for the first, > 10 µg/mL for the second.

B5 and B6 cannot be ordered by “pseudovirus neutralization IC50” value: > 10 µg/mL for the first, > 10 µg/mL for the second.

First: B7
Second: B8
The “pseudovirus neutralization IC50” value of the first is lower: 0.262 µg/mL for the first, > 10 µg/mL for the second.

B9 and B10 cannot be ordered by “pseudovirus neutralization IC50” value: > 10 µg/mL for the first, > 10 µg/mL for the second.

First: B11
Second: B12
The “pseudovirus neutralization IC50” value of the first is lower: 0.317 µg/mL for the first, > 10 µg/mL for the second.

What follows are binders tested against SARS-CoV-2 Omicron BA.2.75 spike pseudovirus in the same assay as above.
Experimental: as §1

B1 and B2 cannot be ordered by “pseudovirus neutralization IC50” value: > 10 µg/mL for the first, > 10 µg/mL for the second.

B3 and B4 cannot be ordered by “pseudovirus neutralization IC50” value: > 10 µg/mL for the first, > 10 µg/mL for the second.

B5 and B6 cannot be ordered by “pseudovirus neutralization IC50” value: > 10 µg/mL for the first, > 10 µg/mL for the second.

Compared with B7, B8 is higher in “pseudovirus neutralization IC50” value: 0.178 µg/mL for the first, > 10 µg/mL for the second.

B9 and B10 cannot be ordered by “pseudovirus neutralization IC50” value: > 10 µg/mL for the first, > 10 µg/mL for the second.

First: B11
Second: B12
The “pseudovirus neutralization IC50” value of the first is lower: 0.305 µg/mL for the first, > 10 µg/mL for the second.

These binders were tested against SARS-CoV-2 Omicron BA.5 spike pseudovirus in the same assay as above.
Experimental: as §1

B1 and B2 cannot be ordered by “pseudovirus neutralization IC50” value: > 10 µg/mL for the first, > 10 µg/mL for the second.

B3 and B4 cannot be ordered by “pseudovirus neutralization IC50” value: > 10 µg/mL for the first, > 10 µg/mL for the second.

B5 and B6 cannot be ordered by “pseudovirus neutralization IC50” value: > 10 µg/mL for the first, > 10 µg/mL for the second.

Compared with B7, B8 is higher in “pseudovirus neutralization IC50” value: 0.181 µg/mL for the first, > 10 µg/mL for the second.

B9 and B10 cannot be ordered by “pseudovirus neutralization IC50” value: > 10 µg/mL for the first, > 10 µg/mL for the second.

Going from B11 to B12, the “pseudovirus neutralization IC50” value rises from 0.865 µg/mL to > 10 µg/mL.

Each binder was assayed against SARS-CoV-2 Omicron BQ.1.1 spike pseudovirus in the same assay as above.
Experimental: as §1

B1 and B2 cannot be ordered by “pseudovirus neutralization IC50” value: > 10 µg/mL for the first, > 10 µg/mL for the second.

B3 and B4 cannot be ordered by “pseudovirus neutralization IC50” value: > 10 µg/mL for the first, > 10 µg/mL for the second.

B5 and B6 cannot be ordered by “pseudovirus neutralization IC50” value: > 10 µg/mL for the first, > 10 µg/mL for the second.

B7 and B8 cannot be ordered by “pseudovirus neutralization IC50” value: > 10 µg/mL for the first, > 10 µg/mL for the second.

B9 and B10 cannot be ordered by “pseudovirus neutralization IC50” value: > 10 µg/mL for the first, > 10 µg/mL for the second.

B11 and B12 cannot be ordered by “pseudovirus neutralization IC50” value: > 10 µg/mL for the first, > 10 µg/mL for the second.

Each binder was assayed against SARS-CoV-2 Omicron XBB spike pseudovirus in the same assay as above.
Experimental: as §1

B1 and B2 cannot be ordered by “pseudovirus neutralization IC50” value: > 10 µg/mL for the first, > 10 µg/mL for the second.

B3 and B4 cannot be ordered by “pseudovirus neutralization IC50” value: > 10 µg/mL for the first, > 10 µg/mL for the second.

B5 and B6 cannot be ordered by “pseudovirus neutralization IC50” value: > 10 µg/mL for the first, > 10 µg/mL for the second.

B7 and B8 cannot be ordered by “pseudovirus neutralization IC50” value: > 10 µg/mL for the first, > 10 µg/mL for the second.

B9 and B10 cannot be ordered by “pseudovirus neutralization IC50” value: > 10 µg/mL for the first, > 10 µg/mL for the second.

B11 and B12 cannot be ordered by “pseudovirus neutralization IC50” value: > 10 µg/mL for the first, > 10 µg/mL for the second.

These binders were tested against SARS-CoV-2 early D614G spike pseudovirus in the same assay as above.
Experimental: as §1

First: B1
Second: B2
The “pseudovirus neutralization IC50” value of the first is higher: > 10 µg/mL for the first, 7.2 µg/mL for the second.

Compared with B3, B4 is lower in “pseudovirus neutralization IC50” value: > 10 µg/mL for the first, 6.46 µg/mL for the second.

B5 and B6 cannot be ordered by “pseudovirus neutralization IC50” value: > 10 µg/mL for the first, > 10 µg/mL for the second.

Compared with B7, B8 is higher in “pseudovirus neutralization IC50” value: 0.111 µg/mL for the first, > 10 µg/mL for the second.

B9 and B10 cannot be ordered by “pseudovirus neutralization IC50” value: > 10 µg/mL for the first, > 10 µg/mL for the second.

Compared with B11, B12 is higher in “pseudovirus neutralization IC50” value: 0.0104 µg/mL for the first, > 10 µg/mL for the second.
